Tests used:
Sm.TRPMPZQ [1] = target: T1, Sm.TRPMPZQ (Schistosoma mansoni, UniProt A0A5K4F0X5); conditions: S3 Table, titration
Sm.TRPMPZQ [2] = target: T1, Sm.TRPMPZQ; conditions: S3 Table; for Sm.TRPMPZQ AG Averaged Max % Response: titration
[3] = test system: untransfected HEK293 cells; experiment: Counterscreen, agonist mode, Ca2+ signal in untransfected HEK cells; format: cell-based; conditions: S3 Table, counterscreen titration; for EC50: read-out: HEK AG Final EC50, unit inferred
Protocol: (§1) HEK cells were transfected with cDNA (400μg/ml DNA) encoding Sm.TRPMPZQ using a Maxcyte STX electroporation system and incubated overnight at 37°C. This system is uniquely capabable of large scale transfections providing one batch of cells ready for large scale HTS [30]. Briefly, the HEK cells were resuspended at 10^8/ml in Maxcyte electroporation buffer. Plasmid DNA was added to the cells in buffer to achieve a concentration of 400 μg/ml from a stock of 5mg/ml (in TE buffer). This mixture was loaded into the appropriate cassette, inserted into the machine, and cells electroporated. Cells were then frozen to provide a single supply of transfected cells for all subsequent assays. On the day of the assays, cells were thawed in a 37°C waterbath, and resuspended in DMEM + 10% FBS and counted. The cells were pelleted by centrifugation at 170xg for 5 minutes. The media was aspirated, and the remaining pellet was resuspended in 1x HBSS with 20 mM HEPES and 1% DMSO to achieve 1.33x10^6cells/ml. This cell suspension was then dispensed at 3 μl/well to the 1536 well plates (Greiner Bio One part 789072) at a density of 4,000 cells/well. Measurements of fluorescence intensity (λex = 470 nm, λem = 535 nm) were made using a FLIPR (Molecular Devices FLIPR Tetra). A read of basal fluorescence values was made (5s) prior to addition of compounds or controls (30 nl). In both ‘agonist’ and ‘antagonist mode’, the total assay volume was 6μl (1% DMSO). […] Ligand performance was categorized using an algorithm based on the activity of the entire dataset to define a ‘hit-cutoff’ parameter for both agonist-mode and antagonist-mode screening. Any compound with greater percent activation than this cutoff was assigned as ‘active’ prior to titration and counter-screening. Titration assays were executed using the same reagents, protocols and detection systems, done as 10-point concentration-response curves, performed in triplicate. Counter-screening was performed using untransfected HEK293 cells for comparison with results testing the same compounds effect on cells expressing Sm.TRPMPZQ, with ATP used as the positive control. For each compound, activity was plotted against compound concentration and data were fitted with a sigmoidal function. In order to be considered a hit at this stage a compound must achieve a EC50<5 μM for agonists and IC50 <5 μM for antagonists. All compounds selected for titration were subjected to LC-MS analysis to confirm mass and sample purity. ChemAxon (https://www.chemaxon.com) academic licensing was provided for the use of Instant JChem (ver. 15.10.12.0) to perform compound mining of the libraries utilized in this effort.

Amino acid sequences for entries named in this document (tags omitted). Residues count along the entry.
UniProt A0A5K4F0X5, 1-2268: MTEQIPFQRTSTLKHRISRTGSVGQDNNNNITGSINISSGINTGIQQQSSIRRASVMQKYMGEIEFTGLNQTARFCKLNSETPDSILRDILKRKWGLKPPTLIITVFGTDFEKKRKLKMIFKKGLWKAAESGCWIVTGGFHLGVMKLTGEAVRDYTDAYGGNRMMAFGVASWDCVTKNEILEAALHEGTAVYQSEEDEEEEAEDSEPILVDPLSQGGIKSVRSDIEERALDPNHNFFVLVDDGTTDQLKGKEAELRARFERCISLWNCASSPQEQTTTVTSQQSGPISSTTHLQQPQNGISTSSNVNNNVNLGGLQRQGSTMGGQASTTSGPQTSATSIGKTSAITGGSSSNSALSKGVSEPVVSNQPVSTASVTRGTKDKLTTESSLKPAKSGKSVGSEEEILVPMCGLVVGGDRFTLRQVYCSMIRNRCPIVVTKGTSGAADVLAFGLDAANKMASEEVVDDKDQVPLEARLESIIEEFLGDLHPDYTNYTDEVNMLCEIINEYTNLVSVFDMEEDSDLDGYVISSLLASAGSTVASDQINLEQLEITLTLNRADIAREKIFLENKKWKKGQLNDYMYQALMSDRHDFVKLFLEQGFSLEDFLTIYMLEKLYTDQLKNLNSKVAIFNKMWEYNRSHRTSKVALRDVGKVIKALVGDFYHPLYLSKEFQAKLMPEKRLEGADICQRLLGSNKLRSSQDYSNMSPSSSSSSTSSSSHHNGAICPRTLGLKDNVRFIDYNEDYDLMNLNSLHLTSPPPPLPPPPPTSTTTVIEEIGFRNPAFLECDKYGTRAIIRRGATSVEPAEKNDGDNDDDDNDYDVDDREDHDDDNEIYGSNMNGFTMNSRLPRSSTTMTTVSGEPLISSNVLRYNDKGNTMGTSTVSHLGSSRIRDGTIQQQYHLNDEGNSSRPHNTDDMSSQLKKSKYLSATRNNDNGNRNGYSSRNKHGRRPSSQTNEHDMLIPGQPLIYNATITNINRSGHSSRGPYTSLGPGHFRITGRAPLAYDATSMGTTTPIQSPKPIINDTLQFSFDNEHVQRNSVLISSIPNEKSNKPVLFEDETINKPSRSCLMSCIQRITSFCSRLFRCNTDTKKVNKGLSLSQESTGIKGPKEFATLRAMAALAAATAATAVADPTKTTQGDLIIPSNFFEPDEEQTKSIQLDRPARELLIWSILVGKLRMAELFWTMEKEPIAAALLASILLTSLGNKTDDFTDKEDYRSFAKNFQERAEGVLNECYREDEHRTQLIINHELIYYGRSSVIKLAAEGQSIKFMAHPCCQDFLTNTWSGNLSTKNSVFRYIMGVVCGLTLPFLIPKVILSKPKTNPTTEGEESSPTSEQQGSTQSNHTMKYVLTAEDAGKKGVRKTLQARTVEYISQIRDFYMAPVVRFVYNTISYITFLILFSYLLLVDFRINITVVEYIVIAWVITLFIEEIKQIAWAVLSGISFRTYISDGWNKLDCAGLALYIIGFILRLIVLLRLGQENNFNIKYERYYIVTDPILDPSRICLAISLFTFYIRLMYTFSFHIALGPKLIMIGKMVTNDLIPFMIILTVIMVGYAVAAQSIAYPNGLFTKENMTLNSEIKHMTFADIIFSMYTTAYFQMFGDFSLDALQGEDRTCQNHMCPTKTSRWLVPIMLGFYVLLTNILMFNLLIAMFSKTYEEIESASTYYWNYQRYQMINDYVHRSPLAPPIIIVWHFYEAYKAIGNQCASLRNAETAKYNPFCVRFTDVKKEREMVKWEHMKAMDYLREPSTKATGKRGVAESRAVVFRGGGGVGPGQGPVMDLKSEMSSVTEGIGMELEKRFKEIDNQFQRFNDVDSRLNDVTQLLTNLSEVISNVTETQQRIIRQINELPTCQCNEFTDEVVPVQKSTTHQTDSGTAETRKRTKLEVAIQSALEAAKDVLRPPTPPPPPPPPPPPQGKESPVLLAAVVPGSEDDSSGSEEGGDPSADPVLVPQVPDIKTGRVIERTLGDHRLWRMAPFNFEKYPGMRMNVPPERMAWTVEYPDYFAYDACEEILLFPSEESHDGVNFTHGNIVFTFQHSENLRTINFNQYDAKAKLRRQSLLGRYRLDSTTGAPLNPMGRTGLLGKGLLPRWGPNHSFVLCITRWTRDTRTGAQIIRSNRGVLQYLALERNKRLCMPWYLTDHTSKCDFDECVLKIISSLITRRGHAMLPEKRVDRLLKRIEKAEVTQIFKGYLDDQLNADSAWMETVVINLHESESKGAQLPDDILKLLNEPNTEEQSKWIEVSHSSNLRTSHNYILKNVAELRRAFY

[4] = test system: untransfected HEK293 cells; experiment: Counterscreen, antagonist mode, Ca2+ signal in untransfected HEK cells; format: cell-based; conditions: S3 Table, counterscreen titration
Protocol: as §1

SMILES	Sm.TRPMPZQ ANT Averaged Max % Response (Sm.TRPMPZQ [1]) [%]	Sm.TRPMPZQ AG Averaged Max % Response (Sm.TRPMPZQ [2]) [%]	HEK AG Averaged Max % Response [3] [%]	EC50 [3] [µM]	HEK ANT Averaged Max % Response [4] [%]	EC50 (Sm.TRPMPZQ [2]; read-out: Sm.TRPMPZQ AG Final EC50, 10-point titration in triplicate, unit inferred) [µM]
OC(CCCc1ccccc1)(c1ccc(Cl)cc1)c1ccc(Cl)cc1	54.5461	16.1821	20.0472	> 12.4	50.5245	–
Cn1c(=O)c(Cc2ccccc2)c(OC(=O)c2ccccc2)c2ccccc21	69.1131	12.0938	9.728	> 12.4	15.1137	–
COc1ccccc1C1CCN(C(=O)CSCc2cccc3ccccc23)CC1	68.7144	8.38	11.239	> 12.4	34.8934	–
Cc1ccc(SC(=O)c2cc(C)n(-c3c(Cl)cc(Cl)cc3Cl)n2)cc1	51.1564	3.979	16.7969	> 12.4	2.75	–
N#Cc1cnc(Sc2nnc(-c3cccs3)n2-c2ccc(Cl)cc2)nc1N	92.0422	9.525	25.6112	> 12.4	20.8001	–
Cc1noc(C)c1C(=O)Nc1ccc(-n2nc(C(F)(F)F)cc2-c2cccs2)cc1	60.179	8.837	10.3502	> 12.4	78.2697	–
O=C(NCc1cccs1)c1csc(Cc2c(Cl)cccc2Cl)n1	97.1918	36.5206	32.1402	> 12.4	94.1833	–
Clc1ccc(CSc2nccn2-c2cc(Cl)ccc2Cl)cc1	58.5528	24.1721	56.3391	11.6	44.9029	–
O=C(CSc1nnc(C2CC2)n1-c1ccc(Cl)cc1)c1ccc(Cl)cc1	66.4037	10.9034	16.4523	> 12.4	30.6603	–
CC(C)(C)c1ccc(-c2noc(CSc3ccccn3)n2)cc1	57.0798	10.3082	26.9092	> 12.4	53.8801	–
CCOC(=O)C1CCN(S(=O)(=O)c2ccc(CNC(=O)c3ccc(Cl)cc3)s2)CC1	79.6384	4.125	11.0926	> 12.4	59.4596	–
N#Cc1c(-c2cccs2)nc(Nc2ccccc2)[nH]c1=O	86.127	8.856	3.643	> 12.4	50.393	–
N#Cc1ccc(S(=O)(=O)Oc2ccc(Oc3ccccc3)cc2)cc1	68.1394	27.3158	45.6256	> 12.4	76.1689	–
CCOC(=O)CCc1ccc(OCc2ccccc2)c(I)c1	55.1376	12.3764	19.7243	> 12.4	39.3914	–
Cc1onc(-c2ccccc2)c1NC(=O)Nc1ccc(Oc2ncnc3cc(Cl)ccc23)nc1	68.3651	4.6515	17.1587	> 12.4	63.2315	–
CN(C(=O)c1ccc(Cl)cc1)c1ccc(Cl)cc1C(=O)c1ccccc1	93.9179	21.5053	67.3485	5.19	56.4545	> 12.4
